System: Septoria tritici
Test: Use Example M7: activity against Septoria leaf spot pathogen in the microtiter test (Septtr), relative growth
Conditions: 31 ppm, measured at 405 nm on day 7 after inoculation, active compound-free control 100%

CCSc1ncnn1C[C@]1(c2ccc(F)cc2)O[C@H]1c1ccccc1Cl (relative stereo) [I-18, trans-1-[3-(2-chlorophenyl)-2-(4-fluorophenyl)oxiranylmethyl]-5-ethylsulfanyl-1H-[1,2,4]triazole]
growth (relative growth in % of the pathogens): 11%

From patent US20120088662A1, “FUNGICIDAL MIXTURES” (BASF SE, priority 2009, published 2012)
